This is an account of results in PMC6610081.

The chains behind the UniProt entries cited, without tags or fusion partners.
UniProt G3XCV0, whole entry: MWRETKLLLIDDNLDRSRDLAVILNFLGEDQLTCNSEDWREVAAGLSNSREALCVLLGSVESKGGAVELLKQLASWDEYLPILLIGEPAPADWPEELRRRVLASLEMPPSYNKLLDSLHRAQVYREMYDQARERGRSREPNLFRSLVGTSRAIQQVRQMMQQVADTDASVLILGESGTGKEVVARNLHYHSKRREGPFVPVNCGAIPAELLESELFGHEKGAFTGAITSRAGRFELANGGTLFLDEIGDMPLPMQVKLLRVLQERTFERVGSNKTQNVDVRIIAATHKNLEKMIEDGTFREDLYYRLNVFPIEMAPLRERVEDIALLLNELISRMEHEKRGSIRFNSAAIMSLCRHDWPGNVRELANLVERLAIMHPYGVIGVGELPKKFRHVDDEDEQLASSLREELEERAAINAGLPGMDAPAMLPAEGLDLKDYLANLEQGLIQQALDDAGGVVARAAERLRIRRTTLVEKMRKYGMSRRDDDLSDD

For at least one entry, the source does not settle the construct or the ends of the probe. For part of these data: Tags and fusion partners may be left off the protein sequences shown.

The target in the first data set is T1, PhoB (Pseudomonas aeruginosa PAO1) (UniProt P23620).
T1 sequence (looked up, limits assumed): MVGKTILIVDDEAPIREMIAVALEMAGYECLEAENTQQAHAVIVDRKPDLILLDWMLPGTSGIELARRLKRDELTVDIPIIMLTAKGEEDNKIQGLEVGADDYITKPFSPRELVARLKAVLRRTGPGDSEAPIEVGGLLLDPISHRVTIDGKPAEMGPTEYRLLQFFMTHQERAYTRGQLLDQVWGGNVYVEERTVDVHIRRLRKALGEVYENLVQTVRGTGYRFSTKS
The data set is described as follows: EMSA. The following applies: EMSA: 40 ng PCR probe in 20 ul, 10 mM Tris-HCl pH 7.4, 50 mM KCl, 5 mM MgCl2, 10% glycerol, room temperature 20 min, 6% PAGE; recombinant protein; protein details: His (pMCSG19); probe letters rebuilt from the primers and the genome. On the technique in general: In EMSA bound probe runs differently from free probe, usually more slowly.
“CCGCGAGGCGGTGCGCAGCGTGCAGGCAGCAGGTGCCCTAGCGGATCAGACTGTTAAGGTTGGGAAGGATCAGGATGACTGTGGTGGCGAAGACGATGAGGCTCGCTTGCCGCCATCTTTTTGGCTGCTCGTTCAACATGGCCTGTCTGCCTTTCTTGTTGTCGGGTGGCTGCCTGCTCCGCGCTACGGCCCGGCGGAACGGCTTGCCACGCAGTGGCGTACTCTTCGGTCGGCCCGGCATCCCCGGCGTCGACCTCCCTTTCGAACGCTTGCATGAATCAGTCTAAGCCCCGGCCTGCGCGGGCTTAGACCACTTGGATACAAGCTGCTGCGGTCTAGACATATTCCCTCTATATGACAGCGTGGTGACGGCTCTGGCGTGCGTCTCGACCGTTCGTCCGGTGTCCGGGTTTCCGGTCGAAAGATGGCATGGTGCTATCTTCCCGGCGTTGCAGGCTGAGCTGGGCGGTCAATCAGCCTGAGCGGTTCGGTCATTGTCCCGCCGGCGAGCCTGTTTAAGGTAGGCGGAGGCCCGCTCGGCCGGACGAGAACAGGATAAGAGAGACCGCC (double strand) [PA1736 promoter]”: the binding result was “binds”. On the same count and under the same terms, the same measure for “GCTTCTTCTCCACAGTAAACGCGGCCGGGCCGCAGGCGCGGCGCTGGTGGGCGCCGGTACGAACCGGGCGGCGGGACCTTCTGGGGTCGTCCCGGGCGCCGCGGTTCGGATGTGGCCATTTCGCCTGGGAGATGTATCGGGGGTGTATCGCCCGACACGTGGATTTGTACGCCGGAGGTATCGAAACCGCGCATGGATACAAAGCGATACGCAATCGAGCGCGGGCATGCCGACGAAGTGCCGGGCATCTCTCACTCCCGCCGGCCCATCTCGGCTACCGTTAGGAGACAGCCACCTGGCCCAGTCTCGAGGTCGAGCCCATC (double strand) [PA4108 promoter]”: “binds”; for “GGGTATCTCCTTTGGCACGGTGGATGCCCGAGGAGACAGGTTGGGAGGGAGTTCACCGGACCGCCGCCTCGGGCGGTTCGGGAATGCAGCGACGCATCTACCGCCTCAATGAGGGAGCAGATAGGCGTAATAGCGCTTGAAGGTCAGGGCTGCACGATTCATGCGCGGCACTCTACGCGCCTGTGCCGGGCTGTCAAGACTGGAAAGCGCCTCGACACGAACCGAAGCACTTCCCCGCAACAGAAGCGCAGCCTGGGAAAGTTTGCCCGCTAGTTATCCGCACAAATTTATGACGCCGGTTTCTCTACTTTGAAAAACAACGCAAGACCGGACATGGACTTCAATAACTCGACCGGAAGAAACCTATCAGCAAGGCAGTTGAATTTTTTCCGAAAGCAATAATTCGATACTTTTCTGGATTGGCGCATCATCTCATAAAAATAGCGAACCGCTTCCCAGTACCCACGAATATCAATGGATCAGCAATATCCAGATGCTTATCGCGGCATTCGAAAAAACATCGACCAATTCCACTGACAGAATATCGGCGTCATTTGCCTAGCATGGATATTCCAAGTTCACCCTATCAACTTCCCAGATTGACACTCTCGCCGGCAGATCAGTAATTTTCAGCGACCAGCCGGCAAAGTACTTTTCCAGAGCGGCTGGCAACCGATAGTCACTCTATCTTCGCAAACCGATGTTTATGCGAGAGGGCCGGCTATCGCTCAAAACTTGATTGATGAAGGAATAGCGCC (double strand) [PA4139 promoter]”: “binds”.

In a further data set the target is T2, GacA (Pseudomonas aeruginosa PAO1) (UniProt Q51373).
T2 sequence (looked up, limits assumed): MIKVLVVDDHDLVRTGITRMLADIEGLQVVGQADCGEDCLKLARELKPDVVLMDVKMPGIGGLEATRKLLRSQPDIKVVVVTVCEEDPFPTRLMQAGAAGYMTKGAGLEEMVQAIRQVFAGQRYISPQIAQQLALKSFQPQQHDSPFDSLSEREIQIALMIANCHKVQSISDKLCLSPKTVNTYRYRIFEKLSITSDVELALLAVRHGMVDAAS
The data set is described as follows: EMSA. Particulars: EMSA: 40 ng PCR probe in 20 ul, 10 mM Tris-HCl pH 7.4, 50 mM KCl, 5 mM MgCl2, 10% glycerol, room temperature 20 min, 6% PAGE; recombinant protein; protein details: His (pMCSG19); probe letters rebuilt from the primers and the genome.
Take “CGAACACCTCGTATCCAGCGGAATCGGGGCGGAACGGCCGCCCGGCGGAAGTTGCATCGCTACAAGGTGAGCGTCCGACAGCGGACCACCCACCCGCCCCGACGCTGGGGCGAAACGACGAAGACGCCACGGGCCTCTGCCGGGAAGGAGAGGCCGCGCGACGTCTTTGTCGGGGATGGGTAACCGCCGTTGGCTACCGTCAGGCAGGACGTAGCAAGCTCTTTGCCAAGTTGTCGAAAGCGCGGCGTAGAGCGGTTGCAGGGACAACCATGGCGTCGGGCGTGCACGCCGCGGTGGCAGGCGTCGGGGGCTTGCACAGGGCTGGGGCGGCGCGTCCGTGCGCCGTCGGCGGT (double strand) [nasA promoter]”: the binding result is recorded as “binds”. On the same count and under the same terms, the same measure for “CGGTTACCTCTTGCACGCGATGCTATCGCCCTGAAGGCGTCAGGGCTTCGTTATTCCATGCGGATGTCGTTTCGGTTGATTTTCGTACGCTGGGCTTCCGGCAATCACTACCTTGCGTAAGGGGTTGACAGGAGCGGGGTCTGCGTATAGCCGCGCCTCCGCGACGCCGTGCCGATCGGTCGTGCATGCTTGCCGTGGCCCGGCTGAGCACTGCCGTCCCGGCCACTCTCGCCGGGGTGGCTGCGCCTGGATGATCGTCGTGGGCGGTGGTGGCGCGGGCCGGTCGCCCTGAGCTTCAGGCGCCATCGCCGCTTGCCGGCGCTCGGGAGGCCGCTGGCCAAGGAAAACCGTAGCGCCGCGGCGGGCGGCGGCTAGCGGGGATTTCCGGCCACGCGTGCCGTGCCCGGGCCACGCTTGCCTTCCCGGCGCGCCGGACTCCCGGTGGCCTGGAGGACAGGAAAAGCGAGCGGCGAGGTGTCGGCGAGCAGGGTCAACTCGATCTTCTGATAGGGTCGGTGGGCTGTCCGGGGCGGCTAGGATGGACATTTTCATCGTCTCGGGCAGGCCTGTCGCGACCGCGCGAAGTCGCGACGGATGCCGCTGCTAAGGAGCAACGG (double strand) [pqsH-cdpR intergenic region]”: “binds”.

The target in a further data set is FleQ (Pseudomonas aeruginosa PAO1) (UniProt G3XCV0). The data set is described as follows: EMSA. Particulars: EMSA: 40 ng PCR probe in 20 ul, 10 mM Tris-HCl pH 7.4, 50 mM KCl, 5 mM MgCl2, 10% glycerol, room temperature 20 min, 6% PAGE; recombinant protein; protein details: His (pMCSG19); probe letters rebuilt from the primers and the genome.
Regarding “AGCGTCGACCCGGCCCCCTGGCGGAGCGATCCGCCAGGGGGCTGTTTTTTTCCGACAACCTACGGGATTGACTTTCCCTGGCCCTCCCCATGTTTCCATGAAGTTTCCGGAATATTCACGGGGAGCGGACATCGAGTATTAATGAACCCTTAAAGAAACAGGACTCGGGTTATTAATAAAAGCCACTCAGAAAACACCCGAGATCCTTTCCAACCCTGCAAGCCCCTGAAAAAGAGGCTTCCGGCTTTATCCTCCAGTTTCTTCGAGTTCGTTCAGTCTTCATTCAGCCGTTGTTAAGCGAGTCTTAACAAACGTTCAGGCAGCATTCAGCGACATATAAATAACCTCTTCGTACCGCCCTCCCAGTACCGAGGCTTCATTAC (double strand) [arnB promoter]”, the binding result is on record as “binds”. Still for that read-out and setting: the value for “GGGCCGCTGCTCCGCGATTCCGCGGTAGGGGAAAAAGCTCGTTCCATCTCGCGACCTACCCGAAACGACTACATCCAAAGGTGTAATTCTACATTGCCATCACTTCGATCGTCGGACAATAGCCGCGTTCCAGACGCCTTGCACAGGTGACGAACGGGACTCGAAGCGGCCTGGTCTGCATGGCCGGGTGATGGGCGAGTTCCTTGATGCGGGGCGGCGGCTGTTTGGCGCAGGACAAAAAAAGCCCCGCCGGGTAGGCGAGGCTCAGGGGGAGAACAGCGTGCGGGGGCTCGCTGTCCGGGATGAATCGTCGTGGTGCGC (double strand) [PA3662 promoter]” was “binds”. On the same count and under the same terms, the value for “GGGTATCTCCTTTGGCACGGTGGATGCCCGAGGAGACAGGTTGGGAGGGAGTTCACCGGACCGCCGCCTCGGGCGGTTCGGGAATGCAGCGACGCATCTACCGCCTCAATGAGGGAGCAGATAGGCGTAATAGCGCTTGAAGGTCAGGGCTGCACGATTCATGCGCGGCACTCTACGCGCCTGTGCCGGGCTGTCAAGACTGGAAAGCGCCTCGACACGAACCGAAGCACTTCCCCGCAACAGAAGCGCAGCCTGGGAAAGTTTGCCCGCTAGTTATCCGCACAAATTTATGACGCCGGTTTCTCTACTTTGAAAAACAACGCAAGACCGGACATGGACTTCAATAACTCGACCGGAAGAAACCTATCAGCAAGGCAGTTGAATTTTTTCCGAAAGCAATAATTCGATACTTTTCTGGATTGGCGCATCATCTCATAAAAATAGCGAACCGCTTCCCAGTACCCACGAATATCAATGGATCAGCAATATCCAGATGCTTATCGCGGCATTCGAAAAAACATCGACCAATTCCACTGACAGAATATCGGCGTCATTTGCCTAGCATGGATATTCCAAGTTCACCCTATCAACTTCCCAGATTGACACTCTCGCCGGCAGATCAGTAATTTTCAGCGACCAGCCGGCAAAGTACTTTTCCAGAGCGGCTGGCAACCGATAGTCACTCTATCTTCGCAAACCGATGTTTATGCGAGAGGGCCGGCTATCGCTCAAAACTTGATTGATGAAGGAATAGCGCC (double strand) [PA4139 promoter]” was “binds”; that for “TCAGCCGCCGGCGGCTTCCGGCCGCCGGCCTTCGCTCGACTGCCTGGGTCGAGGGCCGTGCGGCGCGTCCTCCGGTTATTTGGCGAACCCCGGGAGTACGGATTGCCTGGCGCGGATCACTCGTCCCTGTCCGCCTTATCGATAAGTCGGTTCCGAACTCTTTTTCGGTAGTTCATTCAGATGGATGAGTGAAGAGGGCAGATGGAAAGTATCTGCTCGGGAATTCAATGTTCAGAAGAGTGGAGAAGTATTACTTTCTCACTGTTCTTCAGGTACGTTCCGGCTGCCCGCCGTTTCTTATTGGATGAAGTCACTCCTGTGCCTCTGCGCTCGCGCCGCACGGAGAATATCGTCGAGAGGTTCCTCAATAGTGAGTGGAGCTGGCTGACGCGGTATCTCGGTTGTCGGGCGGAGTTGTTCTATATGTTCGAACTTGGCTTTGCTCGTTGTTTTAAGTTTGCGGAATAACCTCTGGAACTATTCATATGAATTTTTGAAAGTTTGGTTTACCTGAGAGATTTATGAGTTGACCTTGTCACGATGGCAGGACTCATGGTTCGCAGGAGTCAACAAACCAGGAGGTTGCG (double strand) [PA3520 promoter]” was “binds”.
